# Reference: patent publication EP0018189B1 (priority 1979, dated 1980)
# Tested on: tetanus toxoid
# Experiment: Adsorption of tetanus toxoid on the adjuvant (toxoid left in supernatant)
# Details: 30 Lf/ml, pH 7.0, stirred 24 hours at room temperature
structure (smiles),measurement,setting,value
CCCCCCCCCCCCCCCCCCOC(=O)[C@@H](N)Cc1ccc(O)cc1 [octadecyl tyrosine],tetanus toxoid in the supernatant after centrifuging,"Procedure A: ether solution of adjuvant (0.3 ml, 30 mg/ml) added to toxoid 10 ml",no detectable tetanus toxoid
same,tetanus toxoid in the supernatant,Procedure B: dry base (10 mg) added to toxoid 10 ml,no detectable tetanus toxoid
